Results: PubChem BioAssay AID449764 (Southern Research Specialized Biocontainment Screening …, 2010)

Tested on: Mycobacterium tuberculosis H37Rv growth inhibition, no glycerol
Experiment: Confirmatory growth inhibition assay, Mycobacterium tuberculosis H37Rv, absence of glycerol (AID 449764);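 note: growth read after 7 days of incubation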
Conditions: measured here: IC90 growth inhibition

| SMILES | IC90 |
| --- | --- |
| CC(=O)NC(SC(=S)N(C)C)C(Cl)(Cl)Cl (stereo not drawn) | 33.5 µM |
| CN(C)C(=O)c1cc([N+](=O)[O-])cc2c1-c1c(cc([N+](=O)[O-])cc1[N+](=O)[O-])C2=O | 12.2 µM |
| O=[N+]([O-])c1cc([N+](=O)[O-])c(CCNc2ccccc2)c([N+](=O)[O-])c1 | 23.4 µM |
